Consider 8 compounds from patent US9426989B2 (priority 2010, dated 2016).

Marks after values point to notes of the source that are not given here.

Assay [1] deals with Mammalian orthoreovirus, type 3 (strain Dearing, ATCC VR-824). The assay can be described thus: Reovirus model, titration on L929 cells (Table 2). The class given is cell-based. As to conditions: 0.05% inactivator; 16 hours, 2-8° C.; then 3 hours at 37° C.
Assay [2] deals with avian C-type retrovirus. The assay can be described thus: Known inactivators: reduction in viral titre, retrovirus. As to conditions: 0.05%, 16-24 hours.
In assay [3] the test system is type 3 reovirus. Nature of the assay: Known inactivators: reduction in viral titre, reovirus. Particulars: 0.05%.
Assay [4] relates to adenovirus 5. The assay can be described thus: Known inactivators: reduction in viral titre, adenovirus. As to conditions: 0.05%.
Assay [5] deals with HSV-1 herpesvirus. Nature of the assay: Known inactivators: reduction in viral titre, herpesvirus. As to conditions: 0.05%.
Assay [6] deals with Influenza A/California/7/09 infected cell DNA. The assay can be described thus: Abasic sites induced by inactivation, A/California. Particulars: 0.05%; 4/37° C.; untreated sample = 1.
Assay [7] concerns Influenza A/Brisbane/10/2010 infected cell DNA. The assay can be described thus: Abasic sites induced by inactivation, A/Brisbane. Particulars: 0.05%; 2-8/37° C.; untreated sample = 1.
For assay [8], the system named is Paramyxovirus, Parainfluenzavirus 3. The assay can be described thus: Comparative data for inactivation with BPL: Parainfluenzavirus 3. As to conditions: BPL 0.05%; 16 hours +2-8° C. (then 2 hours 37° C. for BPL hydrolysis); complete inactivation.
Assay [9] concerns Influenza A/Christchurch//16/10 infected cell DNA. The assay can be described thus: Abasic sites induced by inactivation (DNA Damage Quantification Kit), A/Christchurch. Particulars: 0.05%; 2-8/37° C.; untreated sample = 1.
In assay [10] the test system is Influenza B/Wisconsin/1/2010 infected cell DNA. The assay can be described thus: Abasic sites induced by single/double inactivation with different concentrations of 069-1. Particulars: single inactivation treatment; 0.05%; 2-8/37° C.
For assay [11] the test system is unchanged. Nature of the assay: Abasic sites induced by double inactivation with BPL and 069-1. As to conditions: 2-8/37° C.
The mark [12] stands for this setting: 16 hours, 2-8° C. (then 3 hours at 37° C.).
Where [13] appears, read: 16 hours, 2-8° C. (then 3 hours at 37° C. to remove BPL).

With 2,2′-Dihydroperoxy-2,2′-dibutylperoxide, the “Reduction (of reovirus titre)” value in assay [1] amounted to 3.3 log 10.

For the compound `CCCC(OO)OO`, the “Reduction (of reovirus titre)” value in [1] was found to be 4.0 log 10.

On to `C=O`, for which the “log 10 reduction factor in viral titre after treatment” value (“log 10 reduction factor” below) in assay [2] (15° C.) is listed as 0.6-1.0 log 10; in assay [2] (20° C.), 1.3-1.8 log 10; in assay [2] (24° C.) it was 1.5-2.2 log 10; in assay [3] (16 hours, 2-8° C.), ~0 log 10; in assay [3] (17 hours, 19-23° C.), 1.7 log 10; in assay [3] (24 hours, 19-23° C.), 2.1 log 10. The “log 10 reduction factor” value is 0.9 log 10 in assay [3] (3 days, 2-8° C.); 1.55 log 10 in [3] (6 days, 2-8° C.); “≧6.65 log 10” in [4] (17 hours, 19-23° C.); “≧6.65 log 10” in assay [4] (24 hours, 19-23° C.); 2.95 log 10 in assay [5] (17 hours, 19-23° C.); 3.25 log 10 in assay [5] (24 hours, 19-23° C.). Moreover, the “log 10 reduction factor” value in assay [5] (3 days, 2-8° C.) came to 2.8 log 10; in assay [5] (6 days, 2-8° C.), 2.95 log 10.

Take N-acetyl ethyleneimine: in assay [3] (setting [12]), the “log 10 reduction factor” value turned out to be 1.15 log 10.

For the compound `C1CN1`, the “log 10 reduction factor” value in assay [3] (setting [12]) was found to be 0.65 log 10.

Regarding β-propiolactone, the “Reduction (of reovirus titre)” value in [1] was determined as 2.5 log 10. Further, the “Relative number of APS” value in assay [6] is on record as 63; in [7], 29; in assay [9], 0.6; in assay [10], 30; in assay [11] (Twofold inactivation treatment: BPL first, then the named inactivator 0.05%, samples diluted, dilution factor used) it was 20; in assay [11] (single inactivation treatment, 0.05%) it was 2. Also, the “log 10 reduction factor” value is listed as 2.3-3.8 log 10 in assay [3] (setting [12]), 2.7 log 10 in assay [4] (setting [13]) and 4.5 log 10 in assay [5] (setting [13]). Further, in assay [8], the LRV result is “≧9.5”.

For the compound H2O2, the “Reduction (of reovirus titre)” value in assay [1] is on record as 0.45 log 10.

As for 1,1-Dihydroperoxymethane, in assay [1], the “Reduction (of reovirus titre)” value is recorded as “≧3.8 * log 10”.
